The test deals with recombinant mouse PrP (mouse), P04925.

Usually Kd stands for the equilibrium constant for the complex coming apart.

B1: CDR3H (peptide)
chain: YFCARWNWERDAMDYWG
For B1, the dissociation constant Kd lay within 1 to 10 µM.

For the origin of these results see patent US20110098448A1, “Anti-prion protein antibody fragment” (published 2011).
